Anti-infective test results gathered from many reports (values: NIAID ChemDB through PubChem).

Common to all: tests in culture; organism: Herpes simplex virus 1

Lines come from different laboratories, so protocols vary. ECn: concentration that inhibits the pathogen or its effect by n%. Blank or dashed fields: not listed here.

{"structure": "O=c1[nH]cnc2c1ncn2[C@@H]1C=C(CO)[C@@H](O)[C@H]1O", "read by": "cytopathic effect", "cells": "PRK", "strain or isolate": "KOS", "endpoint": "EC50", "value": ">400 µg/mL"}
{"structure": "O=c1[nH]c(=O)n([C@H]2C[C@H](O)[C@@H](CO)O2)cc1C1CCCC1", "read by": "cytopathic effect", "cells": "E6SM", "strain or isolate": "KOS McIntyre F", "endpoint": "EC50", "value": "115 µM"}
{"structure": "O=c1[nH]c(=O)n([C@@H]2C[C@@H](O)[C@H](CO)O2)cc1/C=C/Br", "read by": "plaque count", "cells": "HeLa", "endpoint": "EC50", "value": "0.2 µM"}
{"structure": "Nc1nc(N)c2ncn(C[C@H]3CC[C@@H](CO)C3)c2n1", "read by": "cytopathic effect", "cells": "E6SM", "strain or isolate": "VMW1837 (TK-)", "endpoint": "EC50", "value": "300 µg/mL"}
{"structure": "COc1cc2c(cc1-c1coc3cc4occc4cc3c1=O)OCO2", "read by": "plaque count", "cells": "VERO", "strain or isolate": "KOS", "endpoint": "EC50", "value": "25.5 µg/mL"}
{"structure": "O=C(O)CP(=O)(O)O", "read by": "plaque count", "strain or isolate": "F", "endpoint": "EC50", "value": "190 µM"}
{"structure": "Nc1nc2c(ncn2COCCOP2(=O)OCc3ccccc3O2)c(=O)[nH]1", "read by": "cytopathic effect", "cells": "VERO", "strain or isolate": "KUPKA", "endpoint": "EC50", "value": "1.02 µM"}
{"structure": "CCc1cn([C@H]2C[C@H](O)[C@@H](CO)S2)c(=O)[nH]c1=O", "read by": "cytopathic effect", "cells": "E6SM", "strain or isolate": "KOS McIntyre F", "endpoint": "EC50", "value": "0.04 µM"}
{"structure": "Nc1nc2c(ncn2CCC(CO)CO)c(=O)[nH]1", "read by": "cytopathic effect", "cells": "HEL", "strain or isolate": "KOS PMEDAP-resistant", "endpoint": "EC50", "value": "0.23 µg/mL"}
{"structure": "O=c1[nH]c(=O)n([C@H]2C[C@H](O)[C@@H](CO)S2)cc1C1CCCC1", "read by": "cytopathic effect", "cells": "E6SM", "strain or isolate": "KOS McIntyre F", "endpoint": "EC50", "value": "13 µM"}
{"structure": "O=c1[nH]c(=O)n([C@H]2C[C@H](O)[C@@H](CO)O2)cc1/C=C/Br", "read by": "cytopathic effect", "cells": "HEL", "strain or isolate": "KOS HPMPC-resistant", "endpoint": "EC50", "value": "0.007 µg/mL"}
{"structure": "CCc1cn([C@H]2C[C@H](O)[C@@H](CO)O2)c(=O)[nH]c1=O", "read by": "cytopathic effect", "cells": "E6SM", "strain or isolate": "KOS McIntyre F", "endpoint": "EC50", "value": "12 µM"}
{"structure": "Nc1ncnc2c1ncn2[C@@H]1C=C(CO)[C@@H](O)[C@H]1O", "read by": "cytopathic effect", "cells": "PRK", "strain or isolate": "KOS", "endpoint": "EC50", "value": "4 µg/mL"}
{"structure": "O=c1[nH]c(=O)n([C@H]2C[C@H](O)[C@@H](CO)O2)cc1/C=C/Br", "read by": "cytopathic effect", "cells": "E6SM", "strain or isolate": "KOS McIntyre F", "endpoint": "EC50", "value": "0.18 µM"}
{"structure": "O=C(O)P(=O)(O)O", "read by": "plaque count", "strain or isolate": "F", "endpoint": "EC50", "value": "52 µM"}
{"structure": "Nc1nc2c(ncn2C[C@H]2CC[C@@H](CO)C2)c(=O)[nH]1", "read by": "cytopathic effect", "cells": "E6SM", "strain or isolate": "B2006 (TK-)", "endpoint": "EC50", "value": ">400 µg/mL"}
{"structure": "O=c1[nH]c(=O)n([C@H]2C[C@H](O)[C@@H](CO)O2)cc1/C=C/Br", "read by": "plaque count", "cells": "MRC-5", "endpoint": "EC50", "value": "<0.05 µM"}
{"structure": "O=C(O)C(Cl)(Br)P(=O)(O)O", "read by": "plaque count", "strain or isolate": "F", "endpoint": "EC50", "value": "790 µM"}
{"structure": "Cc1cn(CCC(CO)COP2(=O)OCc3ccccc3O2)c(=O)[nH]c1=O", "read by": "cytopathic effect", "cells": "VERO", "strain or isolate": "KUPKA", "endpoint": "EC50", "value": ">364 µM"}
{"structure": "NC1=Nc2c(ncn2CCCCCP(=O)(O)O)C(=O)C1", "read by": "cytopathic effect", "cells": "VERO", "endpoint": "EC50", "value": ">250 µM"}
{"structure": "Nc1nccc2c1ncn2[C@@H]1C[C@H](CO)[C@@H](O)[C@H]1O", "read by": "cytopathic effect", "cells": "E6SM", "strain or isolate": "KOS", "endpoint": "EC50", "value": "200 µg/mL"}
{"structure": "Nc1nc(N)c2nnn(C[C@H]3CC[C@@H](CO)C3)c2n1", "read by": "cytopathic effect", "cells": "E6SM", "strain or isolate": "KOS", "endpoint": "EC50", "value": ">400 µg/mL"}
{"structure": "Nc1nccc2c1ncn2[C@@H]1C[C@H](CO)[C@@H](O)[C@H]1O", "read by": "cytopathic effect", "cells": "PRK", "strain or isolate": "KOS", "endpoint": "EC50", "value": ">400 µg/mL"}
{"structure": "O=C1c2cc3ccoc3cc2O[C@@H]2COc3cc4c(cc3[C@]12O)OCO4", "read by": "plaque count", "cells": "VERO", "strain or isolate": "KOS", "endpoint": "EC50", "value": ">50 µg/mL"}
{"structure": "O=c1[nH]c(=O)n([C@H]2C[C@H](O)[C@@H](CO)O2)cc1C1CCC1", "read by": "cytopathic effect", "cells": "E6SM", "strain or isolate": "KOS McIntyre F", "endpoint": "EC50", "value": "34 µM"}
{"structure": "Nc1ncnc2ncn(COCCCl)c12", "read by": "cytopathic effect", "cells": "VERO", "strain or isolate": "KOS", "endpoint": "EC50", "value": ">128 µg/mL"}
{"structure": "Nc1nc(N)c2ncn(CCOCP(=O)(O)O)c2n1", "read by": "cytopathic effect", "cells": "HEL", "strain or isolate": "KOS", "endpoint": "EC50", "value": "3.6 µg/mL"}
{"structure": "Cc1cccc2c1OP(=O)(OCC(CO)CCn1cc(C)c(=O)[nH]c1=O)OC2", "read by": "cytopathic effect", "cells": "VERO", "strain or isolate": "KUPKA", "endpoint": "EC50", "value": "350 µM"}
{"structure": "NC1=Nc2c(ncn2CCC(/C=C/P(=O)(O)O)CO)C(=O)C1", "read by": "cytopathic effect", "cells": "VERO", "endpoint": "EC50", "value": ">250 µM"}
{"structure": "O=c1ccn([C@H]2C[C@H](O)[C@@H](CO)S2)c(=O)[nH]1", "read by": "cytopathic effect", "cells": "E6SM", "strain or isolate": "KOS McIntyre F", "endpoint": "EC50", "value": "16 µM"}
{"structure": "Nc1ncnc2c1ncn2[C@H]1[C@H](O)[C@H](O)[C@]2(CO)O[C@H]12", "read by": "cytopathic effect", "cells": "PRK", "strain or isolate": "KOS", "endpoint": "EC50", "value": "2 µg/mL"}
{"structure": "Nc1ncnc2c1ncn2C[C@@H](CO)OCP(=O)(O)O", "read by": "cytopathic effect", "cells": "HEL", "strain or isolate": "KOS HPMPC-resistant", "endpoint": "EC50", "value": "1.7 µg/mL"}
{"structure": "COc1c2c(cc3ccoc13)C(=O)[C@H]1c3cc4c(cc3OC[C@H]1O2)OCO4", "read by": "plaque count", "cells": "VERO", "strain or isolate": "KOS", "endpoint": "EC50", "value": "18 µg/mL"}
{"structure": "NC(=O)c1ncn([C@@H]2O[C@H](CO)[C@@H](O)[C@H]2O)n1", "read by": "cytopathic effect", "cells": "PRK", "strain or isolate": "KOS", "endpoint": "EC50", "value": ">400 µg/mL"}
{"structure": "Nc1nc2c(ncn2COC(CO)CO)c(=O)[nH]1", "read by": "cytopathic effect", "cells": "HEL", "strain or isolate": "KOS PFA-resistant", "endpoint": "EC50", "value": "0.002 µg/mL"}
{"structure": "Cc1ccc2c(c1)COP(=O)(OCCOCn1cnc3c(=O)[nH]c(N)nc31)O2", "read by": "cytopathic effect", "cells": "VERO", "strain or isolate": "B2006 (TK-)", "endpoint": "EC50", "value": "1.69 µM"}
{"structure": "Nc1ncnc2c1ncn2[C@@H]1O[C@H](CO)[C@@H](O)[C@@H]1O", "read by": "cytopathic effect", "cells": "HEL", "strain or isolate": "KOS PMEA-resistant", "endpoint": "EC50", "value": "11.9 µg/mL"}
{"structure": "Nc1nc(Cl)c2ncn(C[C@H]3CC[C@@H](CO)C3)c2n1", "read by": "cytopathic effect", "cells": "E6SM", "strain or isolate": "VMW1837 (TK-)", "endpoint": "EC50", "value": ">1 µg/mL"}
{"structure": "O=c1[nH]c(=O)n([C@H]2C[C@H](O)[C@@H](CO)O2)cc1I", "read by": "plaque count", "cells": "HeLa", "endpoint": "EC50", "value": "0.5 µM"}
{"structure": "CCOC(=O)P(=O)(OCCOCn1cnc2c(=O)[nH]c(N)nc21)OC(C)C", "read by": "cytopathic effect", "cells": "VERO", "strain or isolate": "AVD", "endpoint": "EC95", "value": "3.1 µM"}

For reference, 4 entries again:

structure,read by,cells,strain or isolate,endpoint,value
Nc1nc2c(ncn2C[C@H]2CC[C@@H](CO)C2)c(=O)[nH]1,cytopathic effect,E6SM,B2006 (TK-),EC50,>400 µg/mL
O=c1[nH]c(=O)n([C@H]2C[C@H](O)[C@@H](CO)O2)cc1C1CCC1,cytopathic effect,E6SM,KOS McIntyre F,EC50,34 µM
O=c1[nH]c(=O)n([C@@H]2C[C@@H](O)[C@H](CO)O2)cc1/C=C/Br,plaque count,HeLa,,EC50,0.2 µM
Nc1nc2c(ncn2COC(CO)CO)c(=O)[nH]1,cytopathic effect,HEL,KOS PFA-resistant,EC50,0.002 µg/mL